Laboratory results reported in patent US20210403443A1, “SUBSTITUTED 1,2,4-OXADIAZOLE, ITS APPLICATION AND A PHARMACEUTICAL PREPARATION COMPRISING IT” (SVENOX PHARMACEUTICALS LLC, priority 2018, published 2021).

What was measured:
Format in all cases: cell-based
[1] = test system: Mycobacterium tuberculosis CNCTC My 331/88; test: MIC micromethod in Sula's medium, collection strain M. tuberculosis
[2] = test system: M. kansasii CNCTC My 235/80; test: MIC micromethod in Sula's medium, atypical strain M. kansasii
[3] = test system: M. tuberculosis MDR strain Praha 1; test: MIC micromethod in Sula's medium, multiresistant strain Praha 1; conditions: strain Praha 1, after 14 days of incubation
[4] = test system: M. tuberculosis MDR strain Praha 4; test: MIC micromethod in Sula's medium, multiresistant strain Praha 4; conditions: strain Praha 4, after 14 days of incubation
[5] = test system: M. tuberculosis MDR strain Praha 131; test: MIC micromethod in Sula's medium, multiresistant strain Praha 131; conditions: strain Praha 131, after 14 days of incubation
[6] = test system: M. tuberculosis MDR strain 9449/2007; test: MIC micromethod in Sula's medium, multiresistant strain 9449/2007; conditions: strain 9449/2007, after 14 days of incubation
[7] = test system: M. tuberculosis MDR strain 234/2005; test: MIC micromethod in Sula's medium, multiresistant strain 234/2005; conditions: strain 234/2005, after 14 days of incubation
[8] = test system: M. tuberculosis MDR strain 7357/1998; test: MIC micromethod in Sula's medium, multiresistant strain 7357/1998; conditions: strain 7357/1998, after 14 days of incubation
[9] = test system: M. tuberculosis MDR strain 8666/2010; test: MIC micromethod in Sula's medium, multiresistant strain 8666/2010; conditions: strain 8666/2010, after 14 days of incubation

O=[N+]([O-])c1ccc(-c2noc(SCc3cc([N+](=O)[O-])cc([N+](=O)[O-])c3)n2)cc1
Minimum inhibiting concentration ([1]; M. tuberculosis My 331/88, after 14 days of incubation): 0.5 µmol/L (≈ 0.202 µg/mL) | Minimum inhibiting concentration ([1]; M. tuberculosis My 331/88, after 21 days of incubation): 1 µmol/L (≈ 0.403 µg/mL) | Minimum inhibiting concentration ([2]; M. kansasii My 235/80, after 7 days of incubation): 2 µmol/L (≈ 0.807 µg/mL) | Minimum inhibiting concentration ([2]; M. kansasii My 235/80, after 14 days of incubation): 2 µmol/L (≈ 0.807 µg/mL) | Minimum inhibiting concentration ([2]; M. kansasii My 235/80, after 21 days of incubation): 4 µmol/L (≈ 1.61 µg/mL) | Minimum inhibiting concentration of substances with general formula I [3]: 1 µmol/L | Minimum inhibiting concentration of substances with general formula I [4]: 0.5 µmol/L | Minimum inhibiting concentration of substances with general formula I [5]: 1 µmol/L | Minimum inhibiting concentration of substances with general formula I [6]: 0.5 µmol/L | Minimum inhibiting concentration of substances with general formula I [7]: 0.5 µmol/L | Minimum inhibiting concentration of substances with general formula I [8]: 1 µmol/L | Minimum inhibiting concentration of substances with general formula I [9]: 0.5 µmol/L

≈ marks a conversion by molar mass, not a printed value.
